In PMC7180939, “Antiplasmodial Activity of p-Substituted Benzyl Thiazinoquinone Derivatives and Their Potential against Parasitic Infections” (Molecules, 2020):

How the values were obtained:
[1] = system: embryonic murine fibroblasts (NIH-3T3 cell line); assay: Cytotoxicity on NIH-3T3 cell line (previous work); assay type: cell-based; settings: NIH-3T3 values from ref 8; for SI = IC50 NIH-3T3/IC50 P. falciparum strain, D10: NIH-3T3 vs D10; for SI = IC50 NIH-3T3/IC50 P. falciparum strain, W2: NIH-3T3 vs W2
[2] = system: human microvascular endothelial cells (HMEC-1); assay: Cytotoxicity assay on HMEC-1 cell line; assay type: cell-based; settings: for SI = IC50 HMEC-1/IC50 P. falciparum strain, D10: HMEC-1 vs D10; for SI = IC50 HMEC-1/IC50 P. falciparum strain, W2: HMEC-1 vs W2

| SMILES | SI = IC50 NIH-3T3/IC50 P. falciparum strain, D10 [1] | SI = IC50 NIH-3T3/IC50 P. falciparum strain, W2 [1] | SI = IC50 HMEC-1/IC50 P. falciparum strain, D10 [2] | SI = IC50 HMEC-1/IC50 P. falciparum strain, W2 [2] |
| --- | --- | --- | --- | --- |
| COC1=C(Cc2ccccc2)C(=O)C2=C(NCCS2(=O)=O)C1=O [Compound 22] | 147.7 | 126.5 | 29.3 | 25.2 |
| COC1=C(Cc2ccc(Cl)cc2)C(=O)C2=C(NCCS2(=O)=O)C1=O [Compound 24] | 48.5 | 41.6 | 5.2 | 4.5 |
| COC1=C(Cc2ccc(C(F)(F)F)cc2)C(=O)C2=C(NCCS2(=O)=O)C1=O [Compound 25] | 11.0 | 11.1 | 4.0 | 4.1 |
| COC1=C(Cc2ccc(OC)cc2)C(=O)C2=C(NCCS2(=O)=O)C1=O [Compound 26] | – | – | 14.8 | 14.7 |
| COC1=C(Cc2ccc(OC(F)(F)F)cc2)C(=O)C2=C(NCCS2(=O)=O)C1=O [Compound 27] | 32.6 | 45.0 | 3.2 | 4.4 |
